Compound potency records, mixed from different reports. Data source: NIAID ChemDB in PubChem.

All rows: tests in culture; species: HIV-1; cell line: MT-4; read-out: EC50

An empty or dashed field is not shown.

compound	strain	changes	method	value
CCC(CCOCCOC)c1cc(O)c(C(c2cccc(NS(=O)(=O)c3cn(C)cn3)c2)C2CC2)c(=O)o1	IIIB	-	p24	5.8 µM
O=S1(=O)c2ccccc2-n2cncc2-c2cccn21	IIIB	-	cytopathic effect / MTT	>85 µM
C[C@H]1CC[C@H](O)[C@H]2CN1C(=O)c1c(O)c(=O)c(C(=O)NCc3c(F)cc(F)cc3F)cn12	IIIB	-	luminescence	0.018 µM
O=C(/C=C/c1ccc(O)c(O)c1/C=C/c1ccc(O)c(O)c1)O[C@H](Cc1ccc(O)c(O)c1)C(=O)O	IIIB	-	p24 / antigen	2.07 µg/mL
CCC(Cc1ccccc1)c1cc(O)c(C(c2cccc(NS(=O)(=O)c3cn(C)cn3)c2)C2CC2)c(=O)o1	IIIB	-	p24	1.3 µM
S=C(NCCc1ccccc1)Nc1ccccn1	IIIB	-	cytopathic effect	0.78 µM
CN1c2ccccc2N2C(=O)CN(CCN3CCCCC3)C(=O)C2c2cccn21	IIIB	-	cytopathic effect / MTT	189 µM
Cc1cn([C@@H]2O[C@H](COCc3ccccc3)C3(OS(=O)(=O)C=C3N)[C@H]2O[Si](C)(C)C(C)(C)C)c(=O)[nH]c1=O	IIIB	-	syncytia	>6 µM
COCCOCCCc1cc(O)c(C(c2cccc(NS(=O)(=O)c3cn(C)cn3)c2)C2CC2)c(=O)o1	IIIB	-	p24	>>3 µM
Cc1cn([C@H]2C[C@H](N=[N+]=[N-])[C@@H](CO)O2)c(=O)[nH]c1=O	IIIB	-	MTT	0.0151 µM
CO[P@](=O)(c1cc(C)cc(/C=C/C#N)c1)c1c(C(N)=O)[nH]c2ccc(Cl)c(F)c12	NL4-3	K103N	ELISA	0.0014 µM
CS(=O)(=O)OCC1Nc2ccccc2S(=O)(=O)n2cccc21	IIIB	-	cytopathic effect / MTT	>130 µM
Cc1cn([C@H]2C[C@H](N=[N+]=[N-])[C@@H](CO)O2)c(=O)[nH]c1=O	IIIB	-	cytopathic effect / XTT	0.016 µM
CCN1C(=O)c2cccn2S(=O)(=O)c2ccc(Cl)cc21	IIIB	-	cytopathic effect / MTT	13 µM
O=c1oc(C(CC2CC2)CC2CC2)cc(O)c1C(c1cccc(NS(=O)(=O)c2ccccc2)c1)C1CC1	IIIB	-	p24	4.1 µM
Cc1cn([C@@H]2O[C@H](COCc3ccccc3)C3(OS(=O)(=O)C(Cc4ccccc4)=C3NCc3ccccc3)[C@H]2O[Si](C)(C)C(C)(C)C)c(=O)n(C)c1=O	IIIB	-	syncytia	5.2 µM
Clc1nc(Cl)c2[nH]cnc2n1	SW3-10125R	RT M41L A62V T69SSS insertion V75V/A M184I L210W T215Y	cytopathic effect / MTT	23.17 µM
CCc1cc(NCc2nc3c(Cl)ccc(Cl)c3o2)c(=O)[nH]c1C	IIIB	-	p24	0.1 µM
Cc1cn([C@@H]2O[C@H](CO[Si](C)(C)C(C)(C)C)C3(OS(=O)(=O)C=C3N)[C@H]2O[Si](C)(C)C(C)(C)C(C)C)c(=O)n(C)c1=O	IIIB	-	syncytia	0.1 µM
COc1cccc(CCNC(=S)Nc2nccs2)c1	IIIB	-	cytopathic effect	0.68 µM
CC(C)Nc1cccnc1N1CCN(C(=O)c2cc3cc(NS(C)(=O)=O)ccc3[nH]2)CC1	IIIB	-	cytopathic effect / MTT	0.01 µM
CCOC(=O)[C@@H](Cc1ccc(O)c(O)c1)OC(=O)/C=C/c1ccc(O)c(O)c1/C=C/c1ccc(O)c(O)c1	IIIB	-	p24 / antigen	1.44 µg/mL
CC(C)=CCN1Cc2cc(Cl)cc3[nH]c(=S)n(c23)C[C@@H]1C	22(RT-L100I Y188H)	RT-L100I Y188H	cytopathic effect / XTT	>10 µM
CCOC(=O)C1c2cccn2N(C)c2ccccc2N1C(=O)CCl	IIIB	-	cytopathic effect / MTT	>6 µM
CCCS(=O)(=O)Nc1cccc(C(c2c(O)cc(C(CC)Cc3ccccc3)oc2=O)C2CC2)c1	IIIB	-	p24	3.5 µM
Cc1ccc(S(=O)(=O)OC[C@H]2O[C@@H](n3cc(C)c(=O)n(C)c3=O)[C@H](O[Si](C)(C)C(C)(C)C)C23OS(=O)(=O)C=C3N)cc1	IIIB	-	syncytia	24 µM
S=C(NCCc1ccccn1)Nc1ccc(Br)cn1	22(RT-L100I Y188H)	RT-L100I Y188H	cytopathic effect / XTT	7 µM
O=[N+]([O-])CC1Nc2ccccc2S(=O)(=O)n2cccc21	IIIB	-	cytopathic effect / MTT	>7 µM
Cc1ccc(NC(=S)NCCc2ccccc2)nc1	IIIB	-	cytopathic effect	0.17 µM
N#Cc1ccc(S(=O)(=O)Nc2cccc(C(c3c(O)cc(C(CC4CC4)CC4CC4)oc3=O)C3CC3)c2)cc1	IIIB	-	p24	2.2 µM
Fc1cccc(F)c1CCNC(=S)Nc1ccccn1	IIIB	-	cytopathic effect	0.01 µM
CC(C)=CCN1Cc2cc(Cl)cc3[nH]c(=S)n(c23)C[C@@H]1C	-	RT-L74V A98G	-	<3 µM
CCc1cc(NCc2nc3c(Cl)ccc(Cl)c3o2)c(=O)[nH]c1C	22(RT-L100I Y188H)	RT-L100I Y188H	cytopathic effect / XTT	>10 µM
O=C(/C=C/c1ccc(O)c2c1[C@H](C(=O)O)[C@@H](c1ccc(O)c(O)c1)O2)O[C@H](Cc1ccc(O)c(O)c1)C(=O)O	IIIB	-	p24 / antigen	3.99 µg/mL
CCOC(=O)C1c2cccn2S(=O)(=O)c2ccccc2N1C(C)=O	IIIB	-	cytopathic effect / MTT	>300 µM
COc1ccc(OC)c(CCNC(=S)Nc2nccs2)c1	IIIB	-	cytopathic effect	0.28 µM

For reference, 3 entries again:

compound | strain | changes | method | value
CCOC(=O)[C@@H](Cc1ccc(O)c(O)c1)OC(=O)/C=C/c1ccc(O)c(O)c1/C=C/c1ccc(O)c(O)c1 | IIIB | - | p24 / antigen | 1.44 µg/mL
CCc1cc(NCc2nc3c(Cl)ccc(Cl)c3o2)c(=O)[nH]c1C | 22(RT-L100I Y188H) | RT-L100I Y188H | cytopathic effect / XTT | >10 µM
COc1ccc(OC)c(CCNC(=S)Nc2nccs2)c1 | IIIB | - | cytopathic effect | 0.28 µM

Rows are shuffled and stem from different studies. ECn: concentration that inhibits the pathogen or its effect by n%.